Patent publication US20230256007A1 (priority 2022, published 2023)

Test system: patient with sequelae of infection with the delta variant of coronavirus
Conditions: Case 1; after 4 weeks of inhalation, about 4% to 5% hydrogen, approximately 3 hours a day; before inhalation severity 3: severe

[HH] [hydrogen gas, hydrogen]
Fatigue after exertion - loss of physical and mental endurance, fatigue aggravated by physical exertion: severity after inhalation (physician's diagnosis): severity 2: moderate
